Laboratory results reported in patent publication US11969412B2, “Methods and compounds for the treatment or prevention of hypercytokinemia and severe influenza” (Poolbeg Pharma (UK) Limited, priority 2017, dated 2024).

System: Influenza A/Perth/16/2009 (H3N2) virus
Assay type: cell-based
Conditions: drug alone; HBECs infected at 0.01 MOI

SMILES	TCID50 (viral titre)
Cc1cc(F)ccc1-c1nc(NC(CO)CO)nc2c1ccc(=O)n2-c1c(F)cccc1F [Dilmapimod]	neither PH797804 nor Dilmapimod treatment showed this effect
OCCCn1cc2c(-c3ccc(F)cc3)c(-c3ccncc3)c(-c3ccc(F)cc3)nc2n1 [Formula II]	did not significantly reduce
CNC(=O)c1ccc(C)c(-n2c(C)cc(OCc3ccc(F)cc3F)c(Br)c2=O)c1 [PH797804]	neither PH797804 nor Dilmapimod treatment showed this effect
CCC(CC)O[C@@H]1C=C(C(=O)O)C[C@H](N)[C@H]1NC(C)=O [oseltamivir]	reduced
